# US20250228855A1
# Amino acid sequences for entries named in this document (tags omitted).
# UniProt Q8I5R7, whole entry: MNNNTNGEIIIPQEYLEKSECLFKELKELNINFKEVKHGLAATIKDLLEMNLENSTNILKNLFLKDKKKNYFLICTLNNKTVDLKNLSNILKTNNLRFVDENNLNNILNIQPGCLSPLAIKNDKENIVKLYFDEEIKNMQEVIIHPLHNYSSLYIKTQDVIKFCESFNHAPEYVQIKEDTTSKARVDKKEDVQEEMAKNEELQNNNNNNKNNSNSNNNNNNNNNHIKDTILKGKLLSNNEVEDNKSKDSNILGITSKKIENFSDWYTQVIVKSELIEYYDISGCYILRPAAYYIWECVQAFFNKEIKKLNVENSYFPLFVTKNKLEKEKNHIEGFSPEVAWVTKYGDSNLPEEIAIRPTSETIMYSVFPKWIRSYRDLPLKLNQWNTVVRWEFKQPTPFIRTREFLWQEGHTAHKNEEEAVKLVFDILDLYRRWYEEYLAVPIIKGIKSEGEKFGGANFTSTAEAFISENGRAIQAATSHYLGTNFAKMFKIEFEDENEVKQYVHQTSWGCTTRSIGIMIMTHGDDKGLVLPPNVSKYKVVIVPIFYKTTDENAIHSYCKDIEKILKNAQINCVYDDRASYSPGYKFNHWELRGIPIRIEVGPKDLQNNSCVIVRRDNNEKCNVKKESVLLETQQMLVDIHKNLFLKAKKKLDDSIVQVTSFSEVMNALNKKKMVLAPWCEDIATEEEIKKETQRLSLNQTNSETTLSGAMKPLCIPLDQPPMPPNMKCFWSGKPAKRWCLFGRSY
# Like-named read-outs stand apart in the source and are kept apart here. Marks after values point to notes of the source that are not given here.
# Assays:
# PfcProRS = PfcProRS (Plasmodium falciparum, UniProt Q8I5R7); test: TR-FRET ligand displacement assay with tracer MAT379, PfcProRS; format: binding
# P. falciparum Dd2-2D4 = conditions: for EC50: read-out: EC50 against Dd2-2D4 wildtype parasites, ABS P. falciparum, tested form: HBr
# [1] = tested on: halofuginone-induced (HFG-induced) P. falciparum; conditions: compound had <50% growth inhibition
# [2] = read-out: PfcProRS (KD [nM]) +proline, 100 μM Pro
# [3] = read-out: PfcProRS (KD [nM]) −, no proline, no ATP
# [4] = read-out: KD for PfcProRS, absence of ATP, tested form: HBr
# [5] = read-out: PfcProRS (KD [nM]) +proline, 100 μM Pro, tested form: HBr
SMILES,Kd (PfcProRS; [2]) [nM],Kd (PfcProRS; [3]) [nM],Kd (PfcProRS; [4]) [nM],Kd (PfcProRS; [5]) [nM],"Kd (PfcProRS; read-out: PfcProRS (KD [nM]) −, no proline, no ATP, tested form: HBr) [nM]",EC50 (P. falciparum Dd2-2D4) [nM],"percent growth at 1 μM (Dd2 wt) (P. falciparum Dd2-2D4; 1 μM, compound had <50% growth inhibition) [% ††]",percent growth at 1 μM (Halofuginone-induced) [1] [% ††]
CC(C)(C)OC(=O)N1CCC[C@H](OC(=O)NS(=O)(=O)NCC2CCN(C(=O)Nc3nccnc3C(=O)NC3Cc4ccccc4C3)CC2)[C@H]1CC(=O)Cn1cnc2cc(Br)c(Cl)cc2c1=O (relative stereo),279,455,,,,,,
O=C(C[C@H]1NCCC[C@@H]1OC(=O)NS(=O)(=O)NC1CCN(C(=O)Nc2nccnc2C(=O)NC2Cc3ccccc3C2)CC1)Cn1cnc2cc(Br)c(Cl)cc2c1=O (relative stereo),,,0.821,0.772,0.821,18.7,,
CC(C)(C)OC(=O)N1CCC[C@H](OC(=O)NS(=O)(=O)NC2CCN(C(=O)Nc3nccnc3C(=O)NC3Cc4ccccc4C3)CC2)[C@H]1CC(=O)Cn1cnc2cc(Br)c(Cl)cc2c1=O (relative stereo),179,227,,,,,72,98
O=C(C[C@H]1NCCC[C@@H]1OC(=O)NS(=O)(=O)NCC1CCN(C(=O)Nc2nccnc2C(=O)NC2Cc3ccccc3C2)CC1)Cn1cnc2cc(Br)c(Cl)cc2c1=O (relative stereo),,,0.68,0.729,,18.7,,
